# Results from patent US12655101B2, “Small molecules with antibacterial activity” (NEW MEXICO TECH UNIVERSITY RESEARCH PARK CORPORATION, priority 2021, dated 2026).
# System: A. baumannii ATCC BAA-1797
# Experiment: Colony counts of A. baumannii ATCC BAA-1797 treated with 4xMIC for 16 hours
# Type: cell-based
# Settings: 1 μg/mL PME, 1 mM PAO, compounds at 4xMIC
compound,measurement,value
O=[As]c1ccccc1 (stereo not shown),cell viability after 16 hours of treatment,cells were still viable
